Publication PMC6319706 (PLoS ONE, 2019)

Sequences of proteins named here, by UniProt entry; tags and fusion partners are left off. A change or cut given only in a name is not applied to a line headed by its entry. Residues count along the entry.
UniProt P02710: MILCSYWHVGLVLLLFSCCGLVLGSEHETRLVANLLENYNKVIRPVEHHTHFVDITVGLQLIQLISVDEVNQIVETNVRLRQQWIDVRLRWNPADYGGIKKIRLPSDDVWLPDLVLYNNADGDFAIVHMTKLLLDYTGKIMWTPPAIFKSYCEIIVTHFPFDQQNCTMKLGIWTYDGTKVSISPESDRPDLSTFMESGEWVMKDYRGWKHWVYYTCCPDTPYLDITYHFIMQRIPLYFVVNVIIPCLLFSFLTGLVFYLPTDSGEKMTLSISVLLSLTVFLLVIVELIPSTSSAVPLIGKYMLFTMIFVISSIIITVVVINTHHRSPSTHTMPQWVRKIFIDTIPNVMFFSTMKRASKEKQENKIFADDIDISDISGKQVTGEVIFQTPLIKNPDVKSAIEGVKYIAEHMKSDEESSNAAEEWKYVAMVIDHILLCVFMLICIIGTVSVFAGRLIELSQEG
UniProt P02714: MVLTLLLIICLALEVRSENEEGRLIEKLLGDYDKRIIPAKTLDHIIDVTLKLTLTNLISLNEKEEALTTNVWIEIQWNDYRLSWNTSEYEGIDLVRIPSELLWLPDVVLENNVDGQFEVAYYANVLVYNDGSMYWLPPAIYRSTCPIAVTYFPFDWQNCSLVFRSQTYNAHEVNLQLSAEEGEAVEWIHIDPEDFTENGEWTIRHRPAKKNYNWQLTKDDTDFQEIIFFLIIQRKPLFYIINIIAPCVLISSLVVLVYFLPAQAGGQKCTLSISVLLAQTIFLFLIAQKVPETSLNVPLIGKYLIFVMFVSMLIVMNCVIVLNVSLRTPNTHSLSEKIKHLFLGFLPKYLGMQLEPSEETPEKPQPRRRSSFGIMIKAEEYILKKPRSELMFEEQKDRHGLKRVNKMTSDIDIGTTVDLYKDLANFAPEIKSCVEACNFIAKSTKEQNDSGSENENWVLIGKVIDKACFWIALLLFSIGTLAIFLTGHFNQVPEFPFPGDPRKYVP
UniProt P02718: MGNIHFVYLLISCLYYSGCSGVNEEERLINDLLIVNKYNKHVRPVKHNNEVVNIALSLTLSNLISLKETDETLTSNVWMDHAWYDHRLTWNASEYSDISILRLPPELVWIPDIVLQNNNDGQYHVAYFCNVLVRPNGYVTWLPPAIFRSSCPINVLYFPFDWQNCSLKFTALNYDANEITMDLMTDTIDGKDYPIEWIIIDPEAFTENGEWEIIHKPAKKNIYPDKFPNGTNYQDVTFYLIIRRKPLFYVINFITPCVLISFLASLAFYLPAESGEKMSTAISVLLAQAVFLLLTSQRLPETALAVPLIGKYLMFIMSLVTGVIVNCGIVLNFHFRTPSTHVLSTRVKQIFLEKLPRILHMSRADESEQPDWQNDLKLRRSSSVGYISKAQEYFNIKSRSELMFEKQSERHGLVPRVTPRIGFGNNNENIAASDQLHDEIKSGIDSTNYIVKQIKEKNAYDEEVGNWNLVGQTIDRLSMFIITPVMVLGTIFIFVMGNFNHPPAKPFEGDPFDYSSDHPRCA
UniProt Q8WSF8, 18-236 limits assumed: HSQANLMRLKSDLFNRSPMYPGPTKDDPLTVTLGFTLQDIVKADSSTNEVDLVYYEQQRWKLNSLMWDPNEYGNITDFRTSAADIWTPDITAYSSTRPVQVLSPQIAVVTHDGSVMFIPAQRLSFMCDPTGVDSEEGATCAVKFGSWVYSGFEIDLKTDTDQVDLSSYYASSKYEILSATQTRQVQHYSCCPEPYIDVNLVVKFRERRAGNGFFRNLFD

How the values were obtained:
T. californica nAChR = T. californica nAChR (Tetronarce californica, UniProt P02710+P02714+P02718); test: Radioligand assay, competition with [125I]-αBgt for T. californica electric organ membranes; conditions: inhibition of [125I]-αBgt binding; 95% CI in the row below
A. californica AChBP = A. californica AChBP (Aplysia californica, UniProt Q8WSF8); test: Radioligand assay, competition with [125I]-αBgt for A. californica AChBP; conditions: mean ± SEM; [125I]-αBgt binding

SMILES: COc1cc2c3cc1Oc1cc(ccc1O)C[C@@H]1c4c(cc(OC)c(O)c4Oc4ccc(cc4)C[C@@H]3N(C)CC2)CC[N+]1(C)C [d-TC, d-tubocurarine, reference compound]
- IC50 (T. californica nAChR): 390 nM
- nH (Hill slope) (A. californica AChBP): -1.05 ± 0.02
